Pooled drug test results. Numbers come from NIAID ChemDB, via PubChem.

MIC50, MIC90 and the like: level of inhibition, or share of isolates inhibited. Inhibition is in % at the dose shown (toxicity tests: loss of growth or viability). ICn: concentration for n% inhibition. MIC bound: limit read from a one-dose screen. Blank or dashed fields: not listed here. Conditions beyond the fields shown may differ between rows.

SMILES,strain or isolate,endpoint,test,dose,method,protein,agent,value
CCCCCNCCNCCc1ccccc1F,,MIC,culture,,,,Mycobacterium tuberculosis,25 µM
O=NNc1ccc(F)cn1,H37Rv,inhibition,culture,12.5 µg/mL,BACTEC,,Mycobacterium tuberculosis,79%
Cc1cc(C)c(N(CCC(C)C)C(=O)c2ccccc2)c(C)c1,H37Rv,MIC,culture,,,,Mycobacterium tuberculosis,>100 µg/mL
CC1CN(/N=C/c2ccc([N+](=O)[O-])o2)C(=O)O1,H37Rv,inhibition,culture,6.25 µg/mL,resazurin,,Mycobacterium tuberculosis,-5%
CCOC(=O)NC(N)=O,H37Rv,MIC,culture,,,,Mycobacterium tuberculosis,>100 µg/mL
O=C(Nc1ccccc1[N+](=O)[O-])/C(=N\Nc1cccc(Cl)c1)c1c(O)c2ccccc2oc1=O,H37Rv,MIC bound,culture,,BACTEC,,Mycobacterium tuberculosis,>12.5 µg/mL
CC(=O)c1ccc(-c2cncc(N3CCN(c4ccc(F)cc4F)CC3)n2)cc1,,inhibition,target,1 µM,,UL97 kinase,Cytomegalovirus,<50%
O=Cc1ccccc1OCC(=O)O,H37Rv,MIC,culture,,,,Mycobacterium tuberculosis,>100 µg/mL
Cc1ccc(N2CCN(c3cncc(-c4ccc(C(F)(F)F)cc4)n3)CC2)cc1,,IC50,target,,,UL97 kinase,Cytomegalovirus,<10 µM
CCOC(=O)/C(O)=C\c1ccc2ccccc2n1,H37Rv,MIC,culture,,,,Mycobacterium tuberculosis,>100 µg/mL
Cc1ccc(-c2cncc(NCc3ccco3)n2)cc1C,,inhibition,target,10 µM,,UL97 kinase,Cytomegalovirus,>15%
CC(C)NCC1CCc2cc(CO)c([N+](=O)[O-])cc2N1,H37Rv,MIC bound,culture,,BACTEC,,Mycobacterium tuberculosis,>12.5 µg/mL
O=C(CCl)Nc1cc(S(=O)(=O)O)cc2cc(S(=O)(=O)[O-])cc(O)c12.[Na+],H37Rv,MIC,culture,,,,Mycobacterium tuberculosis,>100 µg/mL
COc1ccc(OC)c(CCNCCNC/C=C(\C)CCC=C(C)C)c1,,MIC,culture,,,,Mycobacterium tuberculosis,50 µM
O=C(NNc1ccc([N+](=O)[O-])cn1)OCCOCCOC(=O)NNc1ccc([N+](=O)[O-])cn1,H37Rv,MIC bound,culture,,BACTEC,,Mycobacterium tuberculosis,>12.5 µg/mL
CC(C)(C)c1ccc(-c2cncc(N3CCN(c4ccncc4)CC3)n2)cc1,,inhibition,target,1 µM,,UL97 kinase,Cytomegalovirus,<50%
O=[N+]([O-])c1cccc2nc(Cl)ccc12,H37Rv,MIC,culture,,,,Mycobacterium tuberculosis,25 µg/mL
COC(=O)NC1C(=O)OC(C2OC2(C)C)C1(C)C,H37Rv,MIC bound,culture,,BACTEC,,Mycobacterium tuberculosis,>12.5 µg/mL
CCC(=O)c1cc(N)c(OC)cc1OC.Cl,H37Rv,MIC,culture,,,,Mycobacterium tuberculosis,50 µg/mL
CCC(Oc1c2ccoc2c(OC)c2oc(=O)cc(O)c12)C(=O)O,H37Rv,MIC bound,culture,,resazurin,,Mycobacterium tuberculosis,>6.25 µg/mL
CCOc1ccccc1CNCCNC(C)c1cccc2ccccc12,,MIC,culture,,,,Mycobacterium tuberculosis,50 µM
Cn1c2ccccc2c2nnc(N/N=C/c3ccncc3)nc21,H37Rv,MIC bound,culture,,resazurin,,Mycobacterium tuberculosis,>6.25 µg/mL
NC(N)=NS(=O)(=O)c1ccc(N)cc1,H37Rv,MIC,culture,,,,Mycobacterium tuberculosis,>100 µg/mL
OC1(c2ccccc2)c2ccccc2N=C2N(C3=NCCN3)CCN21,H37Rv,inhibition,culture,6.25 µg/mL,resazurin,,Mycobacterium tuberculosis,50%
Cc1ccc(C(=O)O)c(O)c1,H37Rv,MIC,culture,,,,Mycobacterium tuberculosis,>100 µg/mL
c1ccc(C2CCN(c3cncc(-c4ccc5ccccc5c4)n3)CC2)cc1,,IC50,target,,,UL97 kinase,Cytomegalovirus,<10 µM
Nc1ccc(O)c2c1C(=O)c1c(O)ccc(N)c1C2=O,H37Rv,MIC,culture,,,,Mycobacterium tuberculosis,>100 µg/mL
CCOC(=O)C1=C(NC)OC/C1=N/NC(=O)c1ccccc1O,H37Rv,inhibition,culture,12.5 µg/mL,BACTEC,,Mycobacterium tuberculosis,4%
Cc1c(Cl)cc(NC(=O)c2cccc(NS(=O)(=O)c3cccc(N)c3)c2)c(O)c1Cl,H37Rv,MIC,culture,,,,Mycobacterium tuberculosis,>100 µg/mL
COc1ccc(NCCN(C)C)c2c(=O)c3ccccc3sc12,H37Rv,MIC,culture,,BACTEC,,Mycobacterium tuberculosis,6.25 µg/mL
Nc1ccc(Nc2nc3ccccc3o2)cc1,H37Rv,MIC,culture,,,,Mycobacterium tuberculosis,>100 µg/mL
c1ccc(NCCNCCNC2CCCCCCC2)cc1,,MIC,culture,,,,Mycobacterium tuberculosis,50 µM
Nc1ccc(S(=O)(=O)c2ccc(N)cc2N)cc1,H37Rv,MIC,culture,,,,Mycobacterium tuberculosis,>100 µg/mL
Clc1ccc(N2CCN(c3cncc(-c4cccc5ccccc45)n3)CC2)cc1Cl,,IC50,target,,,UL97 kinase,Cytomegalovirus,<100 µM
Nc1cc(C(=O)c2ccccc2C(=O)O)ccc1C(=O)O,H37Rv,MIC,culture,,,,Mycobacterium tuberculosis,>100 µg/mL
O=[N+]([O-])c1ccc(CS(=O)(=O)c2ccccc2)o1,H37Rv,MIC,culture,,BACTEC,,Mycobacterium tuberculosis,≥12.5 µg/mL
CCCCCCCCCCCNCCNC(C)CCc1ccccc1,,MIC,culture,,,,Mycobacterium tuberculosis,25 µM
S=c1nn[nH]n1-c1cc(Cl)ccc1Cl,H37Rv,MIC,culture,,,,Mycobacterium tuberculosis,50 µg/mL
O=C1CN(c2cccc(C(F)(F)F)c2)C(=O)CN1/N=C/c1ccco1,H37Rv,MIC bound,culture,,BACTEC,,Mycobacterium tuberculosis,>12.5 µg/mL
CC(CNCCc1ccccc1F)NC1CCCC(C)C1C,,MIC,culture,,,,Mycobacterium tuberculosis,>50 µM
COc1cccc(NC2=CC(=O)C(=O)c3ccccc32)c1,H37Rv,inhibition,culture,6.25 µg/mL,resazurin,,Mycobacterium tuberculosis,36%
CC(CNCC(c1ccccc1)c1ccccc1)NC[C@@H]1CC[C@H]2C[C@@H]1C2(C)C,,MIC,culture,,,,Mycobacterium tuberculosis,12.5 µM
O=C(O)/C=C/c1c2ccc(=O)c(O)c-2oc2c(O)c(O)ccc12,H37Rv,inhibition,culture,12.5 µg/mL,BACTEC,,Mycobacterium tuberculosis,-7%
S=c1[nH][nH]c(=S)s1,H37Rv,MIC,culture,,,,Mycobacterium tuberculosis,>100 µg/mL
FC(F)(F)c1cccc(N2CCN(c3cncc(-c4cc5ccccc5s4)n3)CC2)c1,,inhibition,target,1 µM,,UL97 kinase,Cytomegalovirus,<50%
COc1ccc(CNCCNC(C)c2cccc3ccccc23)cc1OC,,MIC,culture,,,,Mycobacterium tuberculosis,50 µM
O=C(O)c1cc(-c2ccc(O)cc2)nc2ccc(S(=O)(=O)[O-])cc12.[Na+],H37Rv,MIC,culture,,,,Mycobacterium tuberculosis,>100 µg/mL
O=[N+]([O-])c1ccc(N/N=C/c2ccco2)nc1,H37Rv,inhibition,culture,12.5 µg/mL,BACTEC,,Mycobacterium tuberculosis,20%
Nc1c(I)cc(I)cc1I,H37Rv,MIC,culture,,,,Mycobacterium tuberculosis,>100 µg/mL
CC(C)c1ccc2c(c1)CC[C@H]1[C@](C)(CNCCNCCCO)CCC[C@]21C,,MIC,culture,,,,Mycobacterium tuberculosis,25 µM
N#Cc1c(O)oc2cccnc12,H37Rv,inhibition,culture,12.5 µg/mL,BACTEC,,Mycobacterium tuberculosis,-16%
CN(C)c1ccc(-c2cncc(N3CCN(c4ccc(F)cc4F)CC3)n2)cc1,,inhibition,target,1 µM,,UL97 kinase,Cytomegalovirus,<50%
C=CCc1ccc(OC)c(OC)c1,3079,MIC90,culture,,turbidity,,Candida tropicalis,340 µg/mL
CCN(CC)CCNC(=O)c1nn(C)c(=S)[nH]c1=O,H37Rv,MIC bound,culture,,BACTEC,,Mycobacterium tuberculosis,>12.5 µg/mL
Cl.OC1c2c(ccc3ccccc23)CCC1CN1CCCCC1,H37Rv,MIC,culture,,,,Mycobacterium tuberculosis,100 µg/mL
CC1(C)OC(=O)N(CO)C1=O,H37Rv,inhibition,culture,12.5 µg/mL,BACTEC,,Mycobacterium tuberculosis,0%
Fc1ccc(N2CCCCC2)c(NC(=S)c2ccncc2)c1,,inhibition,host protein,10 µM,kinase activity,Erk5,,4.7%

A second listing of 7 rows from above:

CCOC(=O)C1=C(NC)OC/C1=N/NC(=O)c1ccccc1O ; strain or isolate: H37Rv ; endpoint: inhibition ; test: culture ; dose: 12.5 µg/mL ; method: BACTEC ; agent: Mycobacterium tuberculosis ; value: 4%
O=Cc1ccccc1OCC(=O)O ; strain or isolate: H37Rv ; endpoint: MIC ; test: culture ; agent: Mycobacterium tuberculosis ; value: >100 µg/mL
CCOC(=O)/C(O)=C\c1ccc2ccccc2n1 ; strain or isolate: H37Rv ; endpoint: MIC ; test: culture ; agent: Mycobacterium tuberculosis ; value: >100 µg/mL
CC1(C)OC(=O)N(CO)C1=O ; strain or isolate: H37Rv ; endpoint: inhibition ; test: culture ; dose: 12.5 µg/mL ; method: BACTEC ; agent: Mycobacterium tuberculosis ; value: 0%
COc1cccc(NC2=CC(=O)C(=O)c3ccccc32)c1 ; strain or isolate: H37Rv ; endpoint: inhibition ; test: culture ; dose: 6.25 µg/mL ; method: resazurin ; agent: Mycobacterium tuberculosis ; value: 36%
Nc1ccc(Nc2nc3ccccc3o2)cc1 ; strain or isolate: H37Rv ; endpoint: MIC ; test: culture ; agent: Mycobacterium tuberculosis ; value: >100 µg/mL
C=CCc1ccc(OC)c(OC)c1 ; strain or isolate: 3079 ; endpoint: MIC90 ; test: culture ; method: turbidity ; agent: Candida tropicalis ; value: 340 µg/mL